Measured data: PubChem BioAssay AID1259414 (Drosophila RNAi Screening Center, 2018)
Screen: 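Host factors increasing or decreasing Wolbachia levels in cultured fly cells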 (primary screen). Cell system: Drosophila JW18 cells infected with Wolbachia. Reagent: long dsRNA against Drosophila genes, 0.25 µg dsRNA per well of a 384-well plate. Time to read-out: 5 days. Challenge: cells persistently infected with Wolbachia before knock-down; no added drug. Measured: 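Imaged fluorescence in situ signal for Wolbachia 23S rRNA per DAPI-counted host cell, given as a robust z-score within each plate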. Reading the numbers: Wolbachia per cell robust z: higher = more Wolbachia per host cell than the plate typical. Active means: 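Active if absolute robust z reaches 1.5 in two or more of three replicates, leaving out multi- or no-target dsRNAs, genes unexpressed in JW18 and A1 wells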.
In all, the deposit lists about 24,000 reagents; this is an unselected part of those that have a named target and a result. Of all reagents, about 1,210 (5%) were called active. 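Inactive calls also include excluded dsRNAs with several or no targets, genes unexpressed in JW18, and well A1, regardless of score.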 A plus sign joins genes that one reagent is predicted to hit.

VhaM9.7-d [DRSC15028] | Wolbachia per cell robust z, rep 1 = 0.978; Wolbachia per cell robust z, rep 2 = -0.676; Wolbachia per cell robust z, rep 3 = 0.948; outcome = inactive
Nnf1a [DRSC06394] | Wolbachia per cell robust z, rep 1 = 0.167; Wolbachia per cell robust z, rep 2 = -0.292; Wolbachia per cell robust z, rep 3 = -0.254; outcome = inactive
Lhr [DRSC06759] | Wolbachia per cell robust z, rep 1 = -0.125; Wolbachia per cell robust z, rep 2 = -1.08; Wolbachia per cell robust z, rep 3 = -2.3; outcome = inactive
Lhr [DRSC26915] | Wolbachia per cell robust z, rep 1 = -0.149; Wolbachia per cell robust z, rep 2 = -1.23; Wolbachia per cell robust z, rep 3 = -0.955; outcome = inactive
CG13984 [DRSC02316] | Wolbachia per cell robust z, rep 1 = -0.585; Wolbachia per cell robust z, rep 2 = 0.989; Wolbachia per cell robust z, rep 3 = -1; outcome = inactive
sage [DRSC14580] | Wolbachia per cell robust z, rep 1 = -0.201; Wolbachia per cell robust z, rep 2 = 0.511; Wolbachia per cell robust z, rep 3 = -0.0421; outcome = inactive
sage [DRSC28200] | Wolbachia per cell robust z, rep 1 = 0.107; Wolbachia per cell robust z, rep 2 = 0.346; Wolbachia per cell robust z, rep 3 = -0.000907; outcome = inactive
Tsp86D [DRSC15607] | Wolbachia per cell robust z, rep 1 = 0.798; Wolbachia per cell robust z, rep 2 = 0.566; Wolbachia per cell robust z, rep 3 = 0.035; outcome = inactive
Vha16-5 [DRSC02986] | Wolbachia per cell robust z, rep 1 = -3.3; Wolbachia per cell robust z, rep 2 = -0.61; Wolbachia per cell robust z, rep 3 = -1.02; outcome = inactive
ase [DRSC18739] | Wolbachia per cell robust z, rep 1 = 0.99; Wolbachia per cell robust z, rep 2 = 1.66; Wolbachia per cell robust z, rep 3 = 1; outcome = inactive
CG7011 + Prp31 [DRSC10760] | Wolbachia per cell robust z, rep 1 = -0.181; Wolbachia per cell robust z, rep 2 = -5.17; Wolbachia per cell robust z, rep 3 = 0.0538; outcome = inactive
RpL22-like [DRSC04582] | Wolbachia per cell robust z, rep 1 = -1.21; Wolbachia per cell robust z, rep 2 = 0.3; Wolbachia per cell robust z, rep 3 = 0.429; outcome = inactive
lig [DRSC07246] | Wolbachia per cell robust z, rep 1 = -0.498; Wolbachia per cell robust z, rep 2 = 1.78; Wolbachia per cell robust z, rep 3 = -0.00933; outcome = inactive
lig [DRSC07247] | Wolbachia per cell robust z, rep 1 = -0.806; Wolbachia per cell robust z, rep 2 = -0.523; Wolbachia per cell robust z, rep 3 = -0.374; outcome = inactive
lig [DRSC23574] | Wolbachia per cell robust z, rep 1 = 0.137; Wolbachia per cell robust z, rep 2 = 0.332; Wolbachia per cell robust z, rep 3 = -0.123; outcome = inactive
OtopLc [DRSC18082] | Wolbachia per cell robust z, rep 1 = -0.475; Wolbachia per cell robust z, rep 2 = 0.144; Wolbachia per cell robust z, rep 3 = -0.477; outcome = inactive
OtopLc [DRSC18083] | Wolbachia per cell robust z, rep 1 = -0.0387; Wolbachia per cell robust z, rep 2 = 1.33; Wolbachia per cell robust z, rep 3 = -2.22; outcome = inactive
OtopLc [DRSC18132] | Wolbachia per cell robust z, rep 1 = 0.668; Wolbachia per cell robust z, rep 2 = 1.19; Wolbachia per cell robust z, rep 3 = 0.737; outcome = inactive
OtopLc [DRSC25719] | Wolbachia per cell robust z, rep 1 = -0.295; Wolbachia per cell robust z, rep 2 = 0.904; Wolbachia per cell robust z, rep 3 = -0.357; outcome = inactive
OtopLc [DRSC25756] | Wolbachia per cell robust z, rep 1 = -0.479; Wolbachia per cell robust z, rep 2 = -0.399; Wolbachia per cell robust z, rep 3 = -1.82; outcome = inactive
OtopLc [DRSC28477] | Wolbachia per cell robust z, rep 1 = -1.19; Wolbachia per cell robust z, rep 2 = -2.53; Wolbachia per cell robust z, rep 3 = -1.6; outcome = active
